Test [1] has as its system Escherichia coli. Description: Ratio of Kcat to Km for Escherichia coli XL1-Blue VIM-2 A64W mutant beta-lactamase by spectrophotometer. Put shortly: (§1)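 Mutant enzyme expressed in E. coli BL21(DE3) in autoinducing ZYP-5052 medium. Purified by anion exchange at pH 7.2, then high-resolution anion exchange at pH 9.2, plus gel filtration in 50 mM HEPES-50 μM ZnSO4 pH 7.5 where needed. Identity confirmed by tryptic peptide mass fingerprint. Steady-state kinetics on β-lactam substrates were run under the conditions used for wild-type VIM-2.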

Test [2] relates to Escherichia coli. Description: Activity of Escherichia coli XL1-Blue VIM-2 A64W mutant beta-lactamase by spectrophotometer. Summed up: as §1

The values below come from ChEMBL document CHEMBL1687761.

With `CO/N=C(\C(=O)N[C@@H]1C(=O)N2C(C(=O)O)=C(COC(N)=O)CS[C@H]12)c1ccco1`, the kcat/Km – broadly, the turnover number divided by the Michaelis constant – with Escherichia coli [1] amounted to 3.7e+06 M⁻¹ s⁻¹. Also, in the test on Escherichia coli [2], the Km – broadly, the substrate concentration at which the rate is half of its maximum – came to 4 µM; the kcat (as a rule, the number of substrate molecules converted per active site and unit of time at saturation) was found to be 15 s⁻¹.
